Experimental data from the NIST ThermoML archive (doi:10.1021/je900586f).
± gives the expanded uncertainty stated by the source.

Assays:
[1] = xn = mol fraction of the nth substance listed; conditions: 298.15 K, 101 kPa, Liquid, Vibrating tube method
[2] = refractive index (Na D-line) (dimensionless); xn = mol fraction of the nth substance listed; conditions: 298.15 K, 101 kPa, Liquid, Standard Abbe refractometry
[3] = refractive index (Na D-line) (dimensionless); conditions: 298.15 K; 101.33 kPa; Liquid; Standard Abbe refractometry

## CCCCOP(=O)(OCCCC)OCCCC [tributyl phosphate] + CCCCCCCCO
[1]; x1 = 0.0496
  mass density: 833.7 ± 0.7 kg/m3
[1]; x1 = 0.0998
  mass density: 844.7 ± 0.7 kg/m3
[1]; x1 = 0.1996
  mass density: 865 ± 0.7 kg/m3
[1]; x1 = 0.2995
  mass density: 883.2 ± 0.7 kg/m3
[1]; x1 = 0.4001
  mass density: 899.7 ± 0.7 kg/m3
[1]; x1 = 0.5002
  mass density: 914.6 ± 0.7 kg/m3
[1]; x1 = 0.5988
  mass density: 928.1 ± 0.8 kg/m3
[1]; x1 = 0.7011
  mass density: 940.9 ± 0.8 kg/m3
[1]; x1 = 0.8011
  mass density: 952.5 ± 0.8 kg/m3
[1]; x1 = 0.9008
  mass density: 963 ± 0.8 kg/m3
[1]; x1 = 0.9513
  mass density: 968 ± 0.8 kg/m3
[2]; x1 = 0.0496
  refractive index: 1.427 ± 0.0008
[2]; x1 = 0.0998
  refractive index: 1.4259 ± 0.0008
[2]; x1 = 0.1996
  refractive index: 1.4243 ± 0.0008
[2]; x1 = 0.2995
  refractive index: 1.4225 ± 0.0008
[2]; x1 = 0.4001
  refractive index: 1.4216 ± 0.0008
[2]; x1 = 0.5002
  refractive index: 1.4213 ± 0.0008
[2]; x1 = 0.5988
  refractive index: 1.4213 ± 0.0008
[2]; x1 = 0.7011
  refractive index: 1.4216 ± 0.0008
[2]; x1 = 0.8011
  refractive index: 1.4219 ± 0.0008
[2]; x1 = 0.9008
  refractive index: 1.4221 ± 0.0008
[2]; x1 = 0.9513
  refractive index: 1.4224 ± 0.0008

## CCCCOP(=O)(OCCCC)OCCCC [tributyl phosphate]
298.15 K, 101.33 kPa, Liquid, Vibrating tube method
  mass density: 972.69 ± 5.1 kg/m3
Crystal, visual observation
  Normal melting temperature: -78.84 ± 0.5 °C
[3]
  refractive index: 1.42252 ± 0.001

## CCCCOP(=O)(OCCCC)OCCCC [tributyl phosphate] + CCCCCCCCCCO
[1]; x1 = 0.0496
  mass density: 835.9 ± 0.7 kg/m3
[1]; x1 = 0.0999
  mass density: 845.2 ± 0.7 kg/m3
[1]; x1 = 0.2008
  mass density: 862.8 ± 0.7 kg/m3
[1]; x1 = 0.3001
  mass density: 879.1 ± 0.7 kg/m3
[1]; x1 = 0.4004
  mass density: 894.7 ± 0.7 kg/m3
[1]; x1 = 0.4996
  mass density: 909.3 ± 0.7 kg/m3
[1]; x1 = 0.6007
  mass density: 923.4 ± 0.8 kg/m3
[1]; x1 = 0.6981
  mass density: 936.3 ± 0.8 kg/m3
[1]; x1 = 0.7985
  mass density: 949 ± 0.8 kg/m3
[1]; x1 = 0.9003
  mass density: 961.2 ± 0.8 kg/m3
[1]; x1 = 0.9505
  mass density: 967 ± 0.8 kg/m3
[2]; x1 = 0.0496
  refractive index: 1.4341 ± 0.0008
[2]; x1 = 0.0999
  refractive index: 1.4329 ± 0.0008
[2]; x1 = 0.2008
  refractive index: 1.4307 ± 0.0008
[2]; x1 = 0.3001
  refractive index: 1.429 ± 0.0008
[2]; x1 = 0.4004
  refractive index: 1.4275 ± 0.0008
[2]; x1 = 0.4996
  refractive index: 1.4262 ± 0.0008
[2]; x1 = 0.6007
  refractive index: 1.4252 ± 0.0008
[2]; x1 = 0.6981
  refractive index: 1.4244 ± 0.0008
[2]; x1 = 0.7985
  refractive index: 1.4236 ± 0.0008
[2]; x1 = 0.9003
  refractive index: 1.423 ± 0.0008
[2]; x1 = 0.9505
  refractive index: 1.4227 ± 0.0008

## CCCCCCCCN(CCCCCCCC)CCCCCCCC [trioctylamine] + CCCCOP(=O)(OCCCC)OCCCC
[1]; x1 = 0.0499
  mass density: 959.1 ± 0.8 kg/m3
[1]; x1 = 0.0995
  mass density: 946.5 ± 0.8 kg/m3
[1]; x1 = 0.1998
  mass density: 923.5 ± 0.8 kg/m3
[1]; x1 = 0.3002
  mass density: 903 ± 0.7 kg/m3
[1]; x1 = 0.3997
  mass density: 885 ± 0.7 kg/m3
[1]; x1 = 0.5004
  mass density: 868.6 ± 0.7 kg/m3
[1]; x1 = 0.6001
  mass density: 853.9 ± 0.7 kg/m3
[1]; x1 = 0.7006
  mass density: 840.6 ± 0.7 kg/m3
[1]; x1 = 0.8008
  mass density: 828.5 ± 0.7 kg/m3
[1]; x1 = 0.9009
  mass density: 817.5 ± 0.6 kg/m3
[1]; x1 = 0.9514
  mass density: 812.3 ± 0.6 kg/m3
[2]; x1 = 0.0499
  refractive index: 1.4243 ± 0.0005
[2]; x1 = 0.0995
  refractive index: 1.4259 ± 0.0005
[2]; x1 = 0.1998
  refractive index: 1.4286 ± 0.0005
[2]; x1 = 0.3002
  refractive index: 1.4315 ± 0.0005
[2]; x1 = 0.3997
  refractive index: 1.4341 ± 0.0005
[2]; x1 = 0.5004
  refractive index: 1.4366 ± 0.0005
[2]; x1 = 0.6001
  refractive index: 1.4391 ± 0.0005
[2]; x1 = 0.7006
  refractive index: 1.4413 ± 0.0005
[2]; x1 = 0.8008
  refractive index: 1.4434 ± 0.0005
[2]; x1 = 0.9009
  refractive index: 1.4454 ± 0.0005
[2]; x1 = 0.9514
  refractive index: 1.4465 ± 0.0005
